Experiments:
SARS-CoV-2 3CL^pro [1] = molecular target: T1, SARS-CoV-2 3CL^pro (Severe acute respiratory syndrome coronavirus 2 (2019-nCoV) (SARS-CoV-2), UniProt P0DTD1); assay type: cell-based; conditions: HEK293E cells transfected with 3CLpro plasmid, 24 h, Western Blot; class symbols
SARS-CoV-2 3CL^pro [2] = molecular target: T1, SARS-CoV-2 3CL^pro; assay type: biochemical; conditions: FRET, SARS-CoV-2 3CLpro 0.5 μM, substrate 20 μM; class symbols

Compound: Cc1ncsc1-c1ccc(CNC(=O)[C@@H]2C[C@@H](O)CN2C(=O)[C@@H](NC(=O)COCCn2cc(Cn3c(=O)[nH]/c(=N\c4cc5cn(C)nc5cc4Cl)n(Cc4cc(F)c(F)cc4F)c3=O)nn2)C(C)(C)C)cc1 [Compound 7]
- DC50 (SARS-CoV-2 3CL^pro [1]): 100 to 1000 nM
- IC50 (SARS-CoV-2 3CL^pro [2]): 100 to 1000 nM

Compound: Cc1ncsc1-c1ccc(CNC(=O)[C@@H]2C[C@@H](O)CN2C(=O)[C@@H](NC(=O)CCn2cc(Cn3c(=O)[nH]/c(=N\c4cc5cn(C)nc5cc4Cl)n(Cc4cc(F)c(F)cc4F)c3=O)nn2)C(C)(C)C)cc1 [Compound 1]
- DC50 (SARS-CoV-2 3CL^pro [1]): 100 to 1000 nM
- IC50 (SARS-CoV-2 3CL^pro [2]): 100 to 1000 nM

Reference: patent US11518759B1, “Protacs based on VHL ligand targeting coronavirus 3CL protease and preparation method and application thereof” (SHAANXI PANLONG PHARMACEUTICAL CO., LTD., priority 2022, dated 2022)
